Anti-infective test results gathered from many reports (values: NIAID ChemDB through PubChem).

All rows: tests in culture; species: HIV-1; cell line: H9; measure: EC50

Neighbouring rows are from separate reports. ECn is the concentration giving n% inhibition of infection, replication or growth.

{"smiles": "O=Cc1ccc(O)cc1", "strain or isolate": "IIIB", "read by": "p24", "result": "3.28 µg/mL"}
{"smiles": "CCN1c2ncccc2-c2ncc(C)n2-c2ccc(OC)nc21", "strain or isolate": "IIIB", "read by": "p24", "conditions": "7 d", "result": "<0.0023 µM"}
{"smiles": "C/C=C(/C)C(=O)OC1c2cc3c(c(OC)c2-c2c(cc4c(c2OC)OCO4)C[C@H](C)[C@]1(C)O)OCO3", "strain or isolate": "IIIB", "read by": "p24", "result": ">41 µg/mL"}
{"smiles": "C=C(C)OC(=O)N1c2cc(Cl)ccc2NC(=S)C1(C)C", "strain or isolate": "B9 (RT L100I V106A G190A)", "changes": "RT-L100I V106A G190A", "read by": "p24", "result": ">10 µg/mL"}
{"smiles": "CCc1cc(NCc2nc3c(Cl)ccc(Cl)c3o2)c(=O)[nH]c1C", "strain or isolate": "MN", "read by": "syncytia", "result": "0.03 µM"}
{"smiles": "CCc1cc(CCc2nc3ccccc3o2)c(=O)[nH]c1C", "strain or isolate": "A17", "changes": "RT-K103N Y181C", "read by": "p24", "result": "<100 µM"}
{"smiles": "COc1ccc(C(C)c2nccc3cc(OC)c(OC)cc23)cc1OC", "strain or isolate": "IIIB", "read by": "p24", "result": ">11.6 µg/mL"}
{"smiles": "CC(C)(O[C@@H]1O[C@H](CO)[C@@H](O)[C@H](O)[C@H]1O)[C@H]1Cc2cc3ccc(=O)oc3cc2O1", "strain or isolate": "IIIB", "read by": "p24", "result": ">122.5 µM"}
{"smiles": "CC1CNC(=O)c2ccccc2SSc2ccccc2C(=O)N1", "strain or isolate": "IIIB", "read by": "ELISA", "result": "0.05 µg/mL"}
{"smiles": "CCNc1cccnc1N1CCN(C(=O)c2cc3cc(OC)ccc3[nH]2)CC1", "strain or isolate": "MN", "read by": "syncytia", "result": "0.25 µM"}
{"smiles": "CCCCCCCCCCCCCCCCCCCCCCOCC(C)(COCCCCCCCCCCCCCCCCCCCCCC)CO[C@]1(C(=O)O)C[C@H](OS(=O)(=O)O)[C@@H](NC(C)=O)[C@H]([C@H](OS(=O)(=O)O)[C@@H](COS(=O)(=O)O)OS(=O)(=O)O)O1", "strain or isolate": "IIIB", "read by": "p24", "result": "1 µM"}
{"smiles": "CCC1NCCc2cc(O)c(O)cc21", "strain or isolate": "IIIB", "read by": "p24", "result": "1.52 µg/mL"}
{"smiles": "CCCCCCCCCCCCCCOC[C@H](CS[C@]1(C(=O)O)C[C@H](OS(=O)(=O)O)[C@@H](NC(C)=O)[C@H]([C@H](OS(=O)(=O)O)[C@@H](COS(=O)(=O)O)OS(=O)(=O)O)O1)OCCCCCCCCCCCCCC", "strain or isolate": "IIIB", "read by": "p24", "result": "11 µM"}
{"smiles": "Nc1nc2c(ncn2[C@@H]2C[C@H](CO)[C@@H](O)[C@H]2O)c(=O)o1", "strain or isolate": "IIIB", "read by": "RT activity", "result": ">500 µg/mL"}
{"smiles": "CC(C)[C@H](NC(=O)c1ccc2ccccc2n1)C(=O)N[C@@H](Cc1ccccc1)[C@H](O)CN1CC[C@@H](OCc2ccncc2)C[C@H]1C(=O)NC(C)(C)C", "strain or isolate": "IIIB", "read by": "p24", "result": "0.002 µM"}
{"smiles": "COC1CCC(OC2CC(C3OC(O)(CO)C(C)CC3C)OC2C2(C)CCC(C3(C)CCC4(CC(O)C(C)C(C(C)C5OC(O)(CC(=O)O)C(C)C(OC6CCC(OC)C(C)O6)C5OC)O4)O3)O2)OC1C", "strain or isolate": "IIIB", "read by": "RT activity", "result": ">100 µg/mL"}
{"smiles": "Nc1nc2c(ncn2[C@H]2CC[C@@H](CO)C2)c(=O)o1", "strain or isolate": "IIIB", "read by": "RT activity", "result": "175 µg/mL"}
{"smiles": "CCc1cc(CCc2nc3c(Cl)ccc(Cl)c3o2)c(=S)[nH]c1C", "strain or isolate": "A17", "changes": "RT-K103N Y181C", "read by": "p24", "result": "<0.8 µM"}
{"smiles": "COc1cc(OC)c2ccc(=O)oc2c1OC", "strain or isolate": "IIIB", "read by": "p24", "result": "0.933 µg/mL"}
{"smiles": "CC(C)=CCOc1c2ccoc2cc2oc(=O)ccc12", "strain or isolate": "IIIB", "read by": "p24", "result": "40.7 µM"}
{"smiles": "Nc1nc(=O)n([C@H]2C[C@H](O)[C@@H](CO)O2)cc1-c1ccc(-c2ccccc2)s1", "strain or isolate": "IIIB", "read by": "RT activity", "result": ">10 µg/mL"}
{"smiles": "CC(=O)OC[C@]12[C@H](OC(C)=O)[C@H](OC(C)=O)[C@@H]3[C@@H](OC(C)=O)[C@@]14O[C@@]3(C)COC(=O)c1cnccc1[C@@H](C)[C@@](C)(O)C(=O)O[C@@H]([C@H](OC(=O)c1ccoc1)[C@@H]2OC(C)=O)C4(C)O", "strain or isolate": "IIIB", "read by": "p24", "result": "0.1 µg/mL"}
{"smiles": "CCN1c2ncccc2-c2ncc(C)n2-c2cccnc21", "strain or isolate": "IIIB", "read by": "p24", "conditions": "7 d", "result": "<0.018 µM"}
{"smiles": "Nc1nc2c(ncn2[C@H]2CC[C@@H](CO)O2)c(=O)o1", "strain or isolate": "IIIB", "read by": "RT activity", "result": ">500 µg/mL"}
{"smiles": "CO[P@](=O)(c1cc(C)cc(/C=C/C#N)c1)c1c(C(N)=O)[nH]c2ccc(Cl)cc12", "strain or isolate": "IIIB", "result": "0.0005 µM"}
{"smiles": "Nc1nc2c(ncn2[C@@H]2O[C@H](COP(=O)(O)O)[C@@H](O)[C@H]2O)c(=O)o1", "strain or isolate": "IIIB", "read by": "RT activity", "result": ">500 µg/mL"}
{"smiles": "NC(=O)P(=O)(O)OC[C@H]1O[C@@H](n2ccc(N)nc2=O)[C@H](O)[C@@H]1O", "read by": "p24", "result": "3 µM"}
{"smiles": "COc1cc([C@@H]2c3cc4c(cc3[C@H](O)[C@H]3COC(=O)[C@H]23)OCO4)cc(OC)c1OC", "strain or isolate": "IIIB", "read by": "RT activity", "result": "<0.007 µM"}
{"smiles": "CC[C@@H]1O[C@@H]([C@]2(C)C[C@@H](C)[C@](O)([C@]3(C)CC[C@@H]([C@@H](O)[C@]4(O)O[C@H](C[C@@]5(O)O[C@@H]([C@@H](C)[C@H](O)C[C@@H]6O[C@H]([C@@H](C)C(=O)O)[C@@H](C)C[C@H]6C)CC[C@@H]5C)[C@@H](C)C[C@H]4C)O3)O2)CC[C@@]1(C)O", "strain or isolate": "IIIB", "read by": "RT activity", "result": "2.5 µg/mL"}
{"smiles": "COc1ccc([C@H](O)CNC(=O)c2ccccc2)cc1", "strain or isolate": "IIIB", "read by": "p24", "result": "<0.1 µg/mL"}
{"smiles": "Nc1nc(=O)n([C@H]2C[C@H](O)[C@@H](CO)O2)cc1-c1ccoc1", "strain or isolate": "IIIB", "read by": "RT activity", "result": ">10 µg/mL"}
{"smiles": "C/C=C(/C)C(=O)OC(C)(C)[C@@H]1Cc2c(ccc3ccc(=O)oc23)O1", "strain or isolate": "IIIB", "read by": "p24", "result": "4.6 µM"}
{"smiles": "COc1cc2ccnc(Cc3ccc4c(c3)OCO4)c2cc1OC", "strain or isolate": "IIIB", "read by": "p24", "result": ">21.6 µg/mL"}
{"smiles": "Nc1nc(=O)n([C@@H]2C[C@H](O)[C@@H](CO)O2)cc1-c1ccncc1", "strain or isolate": "IIIB", "read by": "RT activity", "result": ">10 µg/mL"}
{"smiles": "COc1c2c(cc3c1-c1c(cc4c(c1OC)OCO4)C(OC(=O)c1ccccc1)[C@@](C)(O)[C@@H](C)C3)OCO2", "strain or isolate": "IIIB", "read by": "p24", "result": "0.5 µg/mL"}
{"smiles": "CC(C)Nc1cccnc1N1CCN(C(=O)c2cc3cc(NS(C)(=O)=O)ccc3[nH]2)CC1", "strain or isolate": "B8 (RT K101I K103N Y181C G190A)", "changes": "RT-K101I K103N Y181C G190A", "read by": "p24", "result": ">10 µg/mL"}
{"smiles": "COC(=O)C[C@@H]1C(=O)CC[C@H](C)C(=O)O[C@@H]2[C@@H]3[C@@H](OC(C)=O)[C@@]45O[C@@]3(C)COC(=O)c3cnccc3[C@@H](C)[C@](C)(O)C(=O)O[C@@H]([C@H](OC(C)=O)[C@H](OC(C)=O)[C@@]4(COC1=O)[C@@H]2OC(C)=O)C5(C)O", "strain or isolate": "IIIB", "read by": "p24", "result": "<0.1 µg/mL"}
{"smiles": "O=c1ccn([C@@H]2O[C@H](COP(=O)(O)CCl)[C@@H](O)[C@H]2O)c(=O)[nH]1", "read by": "p24", "result": "5.5 µM"}
{"smiles": "COc1cc(C[C@H]2C(=O)OC[C@@H]2Cc2ccc(OC)c(OC)c2)ccc1O", "strain or isolate": "IIIB", "read by": "RT activity", "result": "<0.13 µM"}
{"smiles": "Nc1nc2c(ncn2[C@H]2C[C@H](O)[C@@H](CO)O2)c(=O)o1", "strain or isolate": "IIIB", "read by": "RT activity", "result": ">500 µg/mL"}
{"smiles": "Nc1ncnc2c1ncn2CCOCP(=O)(O)O", "strain or isolate": "LAI", "read by": "p24", "result": "4.45 µM"}
{"smiles": "Nc1nc(=O)n([C@@H]2C[C@H](O)[C@@H](CO)O2)cc1-c1ccsc1", "strain or isolate": "IIIB", "read by": "RT activity", "result": ">10 µg/mL"}
{"smiles": "COc1cc(C[C@@](O)(C(N)=O)[C@H](CO)Cc2ccc(OC)c(OC)c2)ccc1O", "strain or isolate": "IIIB", "read by": "RT activity", "result": "<1.8 µM"}
{"smiles": "COc1ccc2c(OC)c3ccoc3nc2c1OC", "strain or isolate": "IIIB", "read by": "p24", "result": "7.41 µg/mL"}
{"smiles": "Nc1ccn([C@H]2CC[C@@H](CO)O2)c(=O)n1", "strain or isolate": "HXB2D (RT-K65R)", "changes": "RT-K65R", "read by": "p24", "result": "5.2 µM"}
{"smiles": "Cc1ccsc1-c1cn([C@@H]2C[C@H](O)[C@@H](CO)O2)c(=O)[nH]c1=O", "strain or isolate": "IIIB", "read by": "RT activity", "result": ">10 µg/mL"}
{"smiles": "C=C(c1ccc(OC)c(OC)c1)c1c2cc(OC)c(OC)cc2cc[n+]1C", "strain or isolate": "IIIB", "read by": "p24", "result": ">17.4 µg/mL"}
{"smiles": "CC(=O)OC[C@]12[C@H](OC(C)=O)[C@H](OC(C)=O)[C@@H]3[C@@H](OC(C)=O)[C@@]14O[C@@]3(C)COC(=O)c1cccnc1CCC(C)C(=O)O[C@@H]([C@H](OC(=O)c1ccoc1)[C@@H]2OC(C)=O)C4(C)O", "strain or isolate": "IIIB", "read by": "p24", "result": ">100 µg/mL"}
{"smiles": "CCCCCCCCCCCCCCOC[C@H](CO[C@]1(C(=O)O)C[C@H](OS(=O)(=O)O)[C@@H](NC(C)=O)[C@H]([C@H](OS(=O)(=O)O)[C@@H](COS(=O)(=O)O)OS(=O)(=O)O)O1)OCCCCCCCCCCCCCC", "strain or isolate": "IIIB", "read by": "p24", "result": "9 µM"}
{"smiles": "Cn1cccc1-c1cn([C@@H]2C[C@H](O)[C@@H](CO)O2)c(=O)nc1N", "strain or isolate": "IIIB", "read by": "RT activity", "result": ">10 µg/mL"}
{"smiles": "CCCCCCCCCCCCCCOC[C@H](CO[C@]1(C(=O)O)C[C@H](O)[C@@H](NC(C)=O)[C@H]([C@H](O)[C@H](O)CO)O1)OCCCCCCCCCCCCCC", "strain or isolate": "IIIB", "read by": "p24", "result": "56 µM"}
{"smiles": "CC1(C)Oc2ccc3ccc(=O)oc3c2[C@@H](OC(=O)C23CCC(C)(C(=O)O2)C3(C)C)[C@H]1OC(=O)C12CCC(C)(C(=O)O1)C2(C)C", "strain or isolate": "IIIB", "read by": "p24", "result": "0.049 µM"}
{"smiles": "CCN1c2ncccc2-c2nccn2-c2ccc(OC)nc21", "strain or isolate": "IIIB", "read by": "p24", "conditions": "7 d", "result": "<0.008 µM"}
{"smiles": "COc1cc2cc(Oc3ccc4ccc(=O)oc4c3)c(=O)oc2cc1O", "strain or isolate": "IIIB", "read by": "p24", "result": ">22.7 µM"}
{"smiles": "COC1CCC(OC2CC(C3(C)CCC4(CC(O)C(C)C(C(C)/C=C(\\C)C(=O)C(C)CC(C)C(=O)O)O4)O3)OC3(OC(C4OC(O)(CO)C(C)CC4C)CC3C)C2C)OC1C", "strain or isolate": "IIIB", "read by": "RT activity", "result": "7.12 µg/mL"}
{"smiles": "c1cc2c(cc1[C@H]1OC[C@H]3[C@@H]1CO[C@@H]3c1ccc3c(c1)OCO3)OCO2", "strain or isolate": "IIIB", "read by": "RT activity", "result": "<8.2 µM"}